Test results reported in US20180214569A1 (Regeneron, published 2018).

What was measured:
[1] = biological target: T1, wild type S. aureus Hemolysin A toxin (Staphylococcus aureus)
[2] = biological target: T2, mutant Hemolysin A (Hla-H35L) (Staphylococcus aureus); assay: SPR (Biacore T200), mAb captured via anti-human Fc, toxin injected, 25 C
[3] = biological target: T2, mutant Hemolysin A (Hla-H35L); assay: SPR (Biacore T200), mAb captured via anti-human Fc, toxin injected, 37 C
[4] = biological target: T1, wild type S. aureus Hemolysin A toxin; assay: cell-based or functional assay

B1: H1H15379P (antibody, V domains shown)
VH: EVQLVESGGGLVQPGWSLRLSCAASGFTFDDYAMHWVRQAPGKGLEWVSGISWNSDDIDYTDSVKGRFTVSRDNAKNSLYLQMNSLRADDTAFYYCVRQRVRGYYYFGMDVWGQGTTVTVSS
VL: DIQMTQSPSSLSASVGDRVTITCRASQGISNYLAWFQQKPGKAPMSLIYAASSLQSGVPSKFSGSGSGTDFTLTISSLQPEDFATYYCQQYNSYPFTFGPGTKVDIK
Kd [1]: 0.0261 µM
koff [1]: 0.00634 s⁻¹
kon [1]: 243000 M⁻¹ s⁻¹
t1/2 [1]: 1.8 min
Kd [2]: 0.00651 µM
koff [2]: 0.00443 s⁻¹
kon [2]: 681000 M⁻¹ s⁻¹
t1/2 [2]: 2.6 min
Kd [3]: 0.0187 µM
koff [3]: 0.012 s⁻¹
kon [3]: 641000 M⁻¹ s⁻¹
t1/2 [3]: 1 min
IC50 [M] for Hemolysin A neutralization (THP-1 cytotoxicity assay) [4]: 6.95e-09 M
